Anti-infective test results gathered from many reports (values: NIAID ChemDB through PubChem).

Common to all: growth or infection tests; agent: Hepatitis B virus

ECn is the concentration giving n% inhibition of infection, replication or growth. a–b is a range or a potency band. Lines come from different laboratories, so protocols vary. Blank or dashed fields: not listed here. Inhibition is in % at the dose shown (toxicity tests: loss of growth or viability).

| smiles | cells | strain or isolate | method | read-out | dose | result |
|---|---|---|---|---|---|---|
| O=C(CNC(=O)Nc1cccc(F)c1)Nc1ccc(Cl)nc1Cl | HepG2.2.15 |  | PCR | EC90 |  | 56 µM |
| CCOC(=O)c1sc(NC(=O)CSc2nnc(Cc3ccccc3)o2)c(C#N)c1C | Huh7 | gtD |  | inhibition | 10 µM | >43% |
| COC1OC(Cn2ccc(=O)nc2SC)C(O)C1O | HepG2 2.2.15 |  | ELISA | inhibition | 100 µM | 25.3% |
| COc1cccc(NC(=O)NCC(=O)Nc2ccc(Cl)nc2Cl)c1 | HepG2.2.15 |  | PCR | EC90 |  | >100 µM |
| CCCOc1cc2c(cc1Cl)-c1c(cc(C(=O)O)c(=O)n1C1CC1)C(C)S2(=O)=O | Primary human hepatocytes |  | antigen / visual reading / absorbance | EC50 |  | 0.05–0.1 µM |
| Nc1ccn([C@H]2S[C@@H](CO)C=C2F)c(=O)n1 | HepAD38 |  |  | EC90 |  | >50 µM |
| O=C(O[C@@H]1Cc2c(O)cc(O)cc2O[C@@H]1c1cc(O)c(O)c(O)c1)c1cc(O)c(O)c(O)c1 |  |  | PCR | inhibition | 25 µM | 36.3% |
| COC1OC(CSc2nccc(=O)[nH]2)C(O)C1O | HepG2 2.2.15 |  | ELISA | inhibition | 100 µM | 88.5% |
| C=C1[C@@H](n2cnc3c(N)ncnc32)[C@H](F)[C@H](O)[C@H]1CO | Huh7 |  |  | EC90 |  | 6 µM |
| Nc1ccn(C[C@@H](CO)OCP(=O)(O)O)c(=O)n1 |  |  |  | MIC |  | 10 µg/mL |
| CCOC(=O)[C@H](C)NP(=O)(OC[C@@H]1OC[C@H](n2cnc3c(NC(C)=O)nc(N)nc32)O1)Oc1ccccc1 | HepAD38 |  | PCR | EC90 |  | >10 µM |
| Nc1nc(NC2CC2)c2ncn([C@H]3CO[C@@H](CO)O3)c2n1 | AD38 | Wild |  | EC90 |  | >10 µM |
| C[C@@]12C(=O)N(CCCCN3C(=O)[C@@]4(C)C5CCC(O5)[C@@]4(C)C3=O)C(=O)[C@]1(C)C1CCC2O1 | HepG2.2.15 |  | PCR | inhibition | 0.003 µM | <40% |
| Nc1ncnc2c1ncn2C[C@@H](CO)OCP(=O)(O)O |  |  |  | MIC |  | 0.1 µg/mL |
| CCCc1cc(=O)nc(SC)n1CC1OC(OC)C(O)C1O | HepG2 2.2.15 |  | ELISA | inhibition | 100 µM | 30.5% |
| O=C(O)c1ccc(-c2cccc(/C=N/NC(=O)c3cc(O)c(O)c(O)c3)c2)cc1 | Huh7 | gtA |  | inhibition | 10 µM | >43% |
| COCCOc1cc2c(cc1Cl)-c1c(cc(C(=O)O)c(=O)n1C1CC1)CS2(=O)=O | Primary human hepatocytes |  | antigen / visual reading / absorbance | EC50 |  | 0.1–0.5 µM |
| CCCCCC(=O)Nc1nc(N)nc2c1ncn2[C@H]1CO[C@@H](COP(=O)(N[C@@H](C)C(=O)OCC)Oc2ccccc2)O1 | HepAD38 |  | PCR | EC90 |  | >10 µM |
| COC1CCC(n2c(C(=O)N[C@H](C)c3ccccc3)c3n(c2=O)CCN(C(=O)c2ccc(Br)c(Cl)c2)C3)CC1 | HepG2.117 |  | PCR | EC50 |  | >5 µM |
| CCOC(=O)[C@H](C)NP(=O)(OC[C@@H]1OC[C@H](n2cnc3c(N)nc(N)nc32)O1)Oc1ccccc1 | AD38 | Wild |  | EC90 |  | 2.8 µM |
| O=C(O)c1cc2c(n(C3CC3)c1=O)-c1cc(Cl)c(OC[C@@H]3CCCO3)cc1S(=O)(=O)C2 | Primary human hepatocytes |  | antigen / visual reading / absorbance | EC50 |  | 0.05–0.1 µM |
| COc1ccc(CNC(=O)c2c3n(c(=O)n2-c2ccc(OCC(F)(F)F)cc2)CCN(C(=O)c2ccc(Br)c(Cl)c2)C3)c(OC)c1 | HepG2.117 |  | PCR | EC50 |  | <0.1 µM |
| O=C(N/C(C(=O)N1CCCCC1)=C(/Cl)c1ccccc1)c1ccccc1 | 2.2.15 |  |  | EC90 |  | 59.8 µM |
| COc1nc(N)nc2c1ncn2[C@H]1CO[C@@H](CO)O1 | AD38 | Wild |  | EC90 |  | >100 µM |
| CCCCCC(=O)Nc1nc(N)nc2c1ncn2[C@H]1CO[C@@H](CO)O1 | HepAD38 |  | PCR | EC90 |  | >10 µM |
| CN(C)C(=O)NCC(=O)Nc1ccc(Cl)nc1Cl | HepG2.2.15 |  | PCR | EC90 |  | >100 µM |
| COC1OC(CSc2ncc(C)c(=O)[nH]2)C(O)C1O | HepG2 2.2.15 |  | ELISA | inhibition | 100 µM | 38.6% |
| COc1ccc2ccccc2c1/C=N/NC(=O)c1cc(O)c(O)c(O)c1 | Huh7 | gtD |  | inhibition | 10 µM | >43% |
| COCCCOc1cc2c(cc1I)-c1c(cc(C(=O)O)c(=O)n1C1CC1)C(C)S2(=O)=O | Primary human hepatocytes |  | antigen / visual reading / absorbance | EC50 |  | 0.05–0.1 µM |
| C[C@@H](c1ccccc1)N1C[C@H](O)Cn2c(c3n(c2=O)CCN(C(=O)c2ccc(Br)c(Cl)c2)C3)C1=O | HepG2.117 |  | PCR | EC50 |  | 0.1–0.5 µM |
| COCCCOc1cc2c(cc1-c1cccs1)-c1c(cc(C(=O)O)c(=O)n1C1CC1)C(C)S2(=O)=O | Primary human hepatocytes |  | antigen / visual reading / absorbance | EC50 |  | >0.05 µM |
| O=C(NCc1ccc(OC(F)F)cc1F)c1c2n(c(=O)n1-c1ccc(OCC(F)(F)F)cc1)CCN(C(=O)c1ccc(Br)c(Cl)c1)C2 | HepG2.117 |  | PCR | EC50 |  | 0.5–5 µM |
| Cc1cc(C)c(C#N)c(=N)o1 | Huh7 | gtD |  | inhibition | 10 µM | >43% |
| N=c1nc(N)c2ncn([C@@H]3O[C@H](CO)[C@@H](O)[C@H]3O)c2c(N)n1 | 2.2.15 |  |  | inhibition | 10 µM | 0% |